Reference: patent publication US4098896A, “1-Halohydrocarbylthio-3-hydrocarbylthio-4-substituted-1,2,4-delta^2 -triazolidin-5-ones” (dated 1978)

Tested on: Botrytis cinerea
Experiment: Control of Botrytis cinerea on detached horsebean leaves

CSc1nn(SC(Cl)(Cl)C(Cl)Cl)c(=O)n1-c1ccccc1
controlling Botrytis cinerea fungus on detached horsebean leaves: effective
